Results of unrelated studies side by side (data: NIAID ChemDB).

All rows: whole-cell or culture tests; agent: Mycobacterium avium complex; read-out: MIC

Lines come from different laboratories, so protocols vary. a–b is a range or a potency band. An empty or dashed field is not shown.

| structure | strain | result |
|---|---|---|
| CC[C@H]1OC(=O)[C@H](C)[C@@H](O[C@H]2C[C@@](C)(OC)[C@@H](O)[C@H](C)O2)[C@H](C)[C@@H](O[C@@H]2O[C@H](C)C[C@H](N(C)C)[C@H]2O)[C@](C)(OC)C[C@@H](C)C(=O)[C@H](C)[C@@H](O)[C@]1(C)O |  | 4 µg/mL |
| Cc1ccc2c(c1)C(=O)c1nc3ccncc3c(=O)n1-2 | 19075 | 1 µg/mL |
| CC[C@H]1OC(=O)[C@H](C)[C@@H](O[C@H]2C[C@@](C)(OC)[C@@H](OC(C)=O)[C@H](C)O2)[C@H](C)[C@@H](O[C@@H]2O[C@H](C)C[C@H](N(C)C)[C@H]2O)C(C)(O)C[C@@H](C)/C(=N\OCCOc2ccccc2)[C@H](C)[C@@H](O)[C@]1(C)O | 20096 (clarithromycin-resistant) | 3.13 µg/mL |
| CCCCCCCCCCCCCCN(C)C(=O)O[C@H]1C(O[C@@H]2[C@@H](C)[C@H](O[C@H]3C[C@@](C)(OC)[C@@H](OC(C)=O)[C@H](C)O3)[C@@H](C)C(=O)O[C@H](CC)[C@@](C)(O)[C@H](O)[C@@H](C)/C(=N/OCCCC3CCCCC3)[C@H](C)CC2(C)O)O[C@H](C)C[C@@H]1N(C)C | 20096 | 0.2 µg/mL |
| CCc1ccc2c(c1)C(=O)c1nc3ccncc3c(=O)n1-2 | 19075 | 1 µg/mL |
| CCNNC(=O)O[C@H]1[C@H](O[C@@H]2[C@@H](C)[C@H](O[C@H]3C[C@@](C)(OC)[C@@H](OC(C)=O)[C@H](C)O3)[C@@H](C)C(=O)O[C@H](CC)[C@@](C)(O)[C@H](O)[C@@H](C)/C(=N/OCCCC3CCCCC3)[C@H](C)CC2(C)O)O[C@H](C)C[C@@H]1N(C)C | 20092 (clarithromycin-resistant) | 1.56 µg/mL |
| COc1cc(NC(C)CCCN)c2nccc(/C=C\C3CCCCC3)c2c1 | 5 clinical isolates | >16 µg/mL |
| CC[C@H]1OC(=O)[C@H](C)[C@@H](O[C@H]2C[C@@](C)(OC)[C@@H](OC(C)=O)[C@H](C)O2)[C@H](C)[C@@H](OC2O[C@H](C)C[C@H](N(C)C)[C@H]2OC(=O)NC)C(C)(O)C[C@@H](C)/C(=N\OCCCC2CCCCC2)[C@H](C)[C@@H](O)[C@]1(C)O | 20045 | 3.13 µg/mL |
| CCCCc1ccc2c(c1)C(=O)c1nc3ccncc3c(=O)n1-2 | 19075 | 0.06 µg/mL |
| O[C@@H](c1cc2ccc(C(F)(F)F)cc2c2cc(C(F)(F)F)ccc12)[C@H]1CCCCN1 | 5 clinical isolates | 2–4 µg/mL |
| CN(C)c1ccc(O)c2c1C[C@H]1C[C@H]3[C@H](N(C)C)C(=O)C(C(N)=O)=C(O)[C@@]3(O)C(=O)C1=C2O | MO-1 | 64 µg/mL |
| CN[C@@H]1[C@@H](O)C(O[C@@H]2[C@@H](O)[C@H](OC3O[C@H](CN)[C@@H](O)[C@H](O)[C@H]3O)[C@@H](N)C[C@H]2NC(=O)[C@@H](O)CN)OC[C@]1(C)O | J16 | 12.5 µg/mL |
| CCCCNC(=O)O[C@H]1C(O[C@@H]2[C@@H](C)[C@H](O[C@H]3C[C@@](C)(OC)[C@@H](OC(C)=O)[C@H](C)O3)[C@@H](C)C(=O)O[C@H](CC)[C@@](C)(O)[C@H](O)[C@@H](C)/C(=N/OCCCC3CCCCC3)[C@H](C)CC2(C)O)O[C@H](C)C[C@@H]1N(C)C | 20092 | 0.1 µg/mL |
| Cc1cc(N=NC(N)=S)c2ccccc2c1O | 5 clinical isolates | >16 µg/mL |
| CC[C@H]1OC(=O)[C@H](C)[C@@H](OC2C[C@@](C)(OC)[C@@H](OC(=O)c3ccccc3)[C@H](C)O2)[C@H](C)[C@@H](O[C@@H]2O[C@H](C)C[C@H](N(C)C)[C@H]2O)C(C)(O)C[C@@H](C)/C(=N\OCCCOc2ccccc2)[C@H](C)[C@@H](O)[C@]1(C)O | 20096 (clarithromycin-resistant) | 1.56 µg/mL |
| CCNC(=O)O[C@H]1C(O[C@@H]2[C@@H](C)[C@H](O[C@H]3C[C@@](C)(OC)[C@@H](OC(C)=O)[C@H](C)O3)[C@@H](C)C(=O)O[C@H](CC)[C@@](C)(O)[C@H](O)[C@@H](C)/C(=N/OCCCC3CCCCC3)[C@H](C)CC2(C)O)O[C@H](C)C[C@@H]1N(C)C | 20034 | >50 µg/mL |
| O=C1c2ccccc2-n2c1nc1ccccc1c2=O |  | 4 µg/mL |
| O[C@@H](c1cc2ccc(C(F)(F)F)cc2c2cc(C(F)(F)F)ccc12)[C@@H]1CCCCN1 | 5 clinical isolates | 2–4 µg/mL |
| CCCCCCCCCCCCCCO/N=C1\[C@H](C)CC(C)(O)[C@H](O[C@@H]2O[C@H](C)C[C@H](N(C)C)[C@H]2O)[C@@H](C)[C@H](OC2C[C@@](C)(OC)[C@@H](O)[C@H](C)O2)[C@@H](C)C(=O)O[C@H](CC)[C@@](C)(O)[C@H](O)[C@H]1C | 20092 (clarithromycin-resistant) | >50 µg/mL |
| CCOCOc1ccc2c(c1)C(=O)c1nc3ccncc3c(=O)n1-2 | 19075 | 1 µg/mL |
| CO[C@H]1/C=C/O[C@@]2(C)Oc3c(C)c(O)c4c(O)c(c5c(c4c3C2=O)NC2(CCN(CC(C)C)CC2)N=5)=NC(=O)/C(C)=C\C=C\[C@H](C)[C@H](O)[C@@H](C)[C@@H](O)[C@@H](C)[C@H](OC(C)=O)[C@@H]1C | SK095 | 0.125 µg/mL |
| CC[C@H]1OC(=O)[C@H](C)[C@@H](O[C@H]2C[C@@](C)(OC)[C@@H](OC(C)=O)[C@H](C)O2)[C@H](C)[C@@H](OC2O[C@H](C)C[C@H](N(C)C)[C@H]2OC(=O)NCC(=O)NC)C(C)(O)C[C@@H](C)/C(=N\OCCCC2CCCCC2)[C@H](C)[C@@H](O)[C@]1(C)O | 20045 | 0.78 µg/mL |
| Cc1cc(-c2cc3c(cc2F)c(=O)c(C(=O)O)cn3C2CC2)cc(C)n1 | MO-1 | 1 µg/mL |

The first 2 rows once more:

structure	strain	result
CC[C@H]1OC(=O)[C@H](C)[C@@H](O[C@H]2C[C@@](C)(OC)[C@@H](O)[C@H](C)O2)[C@H](C)[C@@H](O[C@@H]2O[C@H](C)C[C@H](N(C)C)[C@H]2O)[C@](C)(OC)C[C@@H](C)C(=O)[C@H](C)[C@@H](O)[C@]1(C)O		4 µg/mL
Cc1ccc2c(c1)C(=O)c1nc3ccncc3c(=O)n1-2	19075	1 µg/mL